# Experimental data reported in paper PMC2833280.
# Tested on: O=C(O)C[C@@H]1CC[C@@H](C(=O)O)N1
# Test: purified protein
# Conditions: pH 8.0, 25 °C, saturating ATP (2-4 mM), ionic strength 0.15
Substance,Km,kcat,kcat/Km
CPS (carbapenam synthetase) (Pectobacterium carotovorum subsp. carotovorum; E380D),0.36 ± 0.06 mM,0.26 ± 0.02 s⁻¹,720 M⁻¹ s⁻¹
CPS (carbapenam synthetase) (Pectobacterium carotovorum subsp. carotovorum; E380D/Y345F),0.49 ± 0.06 mM,0.0059 s⁻¹,12 M⁻¹ s⁻¹
CPS (carbapenam synthetase) (Pectobacterium carotovorum subsp. carotovorum; E380Q),0.075 ± 0.015 mM,0.020 ± 0.001 s⁻¹,270 M⁻¹ s⁻¹
CPS (carbapenam synthetase) (Pectobacterium carotovorum subsp. carotovorum; E380Q/Y345F),0.9 ± 0.2 mM,0.011 s⁻¹,11 M⁻¹ s⁻¹
CPS (carbapenam synthetase) (Pectobacterium carotovorum subsp. carotovorum; Y345F),0.27 ± 0.04 mM,0.17 ± 0.01 s⁻¹,630 M⁻¹ s⁻¹
